{
  "source": "paper PMC6359527",
  "about": "“Aptamer Efficacies for In Vitro and In Vivo Modulation of αC-Conotoxin PrXA Pharmacology” (2019)",
  "origin": "cited, not measured here",
  "key": {"adult muscle nAChR": {"test_system": "adult muscle nAChR", "conditions": "read-out: IC50, adult muscle nAChR; previously reported; cited from earlier work"}, "mouse muscle contraction": {"test_system": "mouse muscle contraction", "conditions": "read-out: IC50 of inhibition of mouse muscle contraction; reported dose-dependence; cited from earlier work"}, "fetal muscle nAChR": {"test_system": "fetal muscle nAChR", "conditions": "read-out: IC50, fetal muscle nAChR; previously reported; cited from earlier work"}},
  "data": [
    {"smiles": "CC[C@H](C)[C@H](NC(=O)CNC(=O)[C@H](Cc1ccc(O)cc1)NC(=O)[C@@H](N)[C@@H](C)O)C(=O)N[C@@H](Cc1ccc(O)cc1)C(=O)N[C@@H](CC(=O)O)C(=O)N[C@@H](C)C(=O)N[C@@H](CCCCN)C(=O)N1CCC[C@H]1C(=O)N1C[C@H](O)C[C@H]1C(=O)N[C@@H](Cc1ccccc1)C(=O)N[C@@H](CO)C(=O)N[C@H]1CSSC[C@@H](C(=O)N[C@H](C(=O)N[C@@H](CC(C)C)C(=O)N2CCC[C@H]2C(=O)N2C[C@H](O)C[C@H]2C(=O)N[C@@H](CC(N)=O)C(=O)N[C@@H](CC(C)C)C(=O)N[C@@H](CCCNC(=N)N)C(=O)N2CCC[C@H]2C(=O)N[C@@H](CCCCN)C(=O)N[C@@H](Cc2ccccc2)C(=O)N[C@@H](CCCCN)C(=O)N[C@@H](CCC(=O)O)C(N)=O)C(C)C)NC(=O)CNC(=O)CNC(=O)[C@H](CCCNC(=N)N)NC(=O)[C@H](CC(C)C)NC(=O)CNC(=O)[C@H](C)NC1=O", "values": [
      {"measurement": "IC50", "setting": "adult muscle nAChR", "value": 1.8, "unit": "nM"},
      {"measurement": "IC50", "setting": "mouse muscle contraction", "value": 23, "unit": "nM"},
      {"measurement": "IC50", "setting": "fetal muscle nAChR", "value": 3, "unit": "nM"}
    ]}
  ]
}
